Assay results: patent publication US5869457A, “Modified proteins and their use for controlling viral infections” (Rijksuniversiteit Te Groningen, priority 1991, dated 1999)

What was measured:
HIV-1 (strain HTLV-IIIB) = assay: anti-HIV-1 test: inhibition of virus-induced cytopathogenicity in MT-4 cells (MTT method); format: cell-based
HIV-2 (LAV-2ROD) = assay: anti-HIV-2 test (identical to the anti-HIV-1 test); format: cell-based
Polio = format: cell-based, polio virus
influenza = influenza virus: fusion of viral membrane with erythrocyte ghosts, liposomes and cells (R15 dequenching); format: biochemical
[1] = human pharmacokinetics, antiviral concentrations (expected); format: in vivo; details: intravenous, 1.5-15 mg/kg per day

Substance: Aco-HSA: reaction product of human serum albumin and aconitic anhydride (anhydride of cis- or trans-prop-1-ene-1,2,3-tri-carboxylic acid)
- Inhibitory effect (IC50 μg/ml) on retroviruses, HIV-1 (HIV-1 (strain HTLV-IIIB); HIV-1, Table 1): 0.025 µg/mL
- IC50, anti-HIV activity (HIV-1 (strain HTLV-IIIB); antiviral assay, HIV-1, MT-4 cells): 0.0056 µg/mL
- times more active than AZT (anti-HIV) (HIV-1 (strain HTLV-IIIB); versus AZT): approximately 25 times
- times more active than Suc-HSA (anti-HIV) (HIV-1 (strain HTLV-IIIB); versus Suc-HSA): 175 times
- Inhibitory effect (IC50 μg/ml) on retroviruses, HIV-2 (HIV-2 (LAV-2ROD)): 5.9 µg/mL
- Inhibitory effect (IC50 μg/ml) on the replication of RNA viruses, Polio (Polio): > 400 µg/mL
- Inhibitory effect (IC50 μg/ml) on the replication of RNA viruses, influenza (influenza): 0.8 µg/mL
- antiviral concentrations in blood stream and lymphatic system of AIDS patients [1]: long lasting antiviral concentrations will be attained
